pEC50: −log10 of the molar value. The structures given here were assigned with low confidence; some may be wrong.
Key:
Sm.TRPMPZQ [1] = target: T1, Sm.TRPMPZQ (Schistosoma mansoni, UniProt A0A5K4F0X5); details: S3 Table, titration
[2] = test system: untransfected HEK293 cells; test: Counterscreen, agonist mode, Ca2+ signal in untransfected HEK cells; assay type: cell-based; details: S3 Table, counterscreen titration; for pEC50: read-out: HEK AG Final EC50, unit inferred
Method: (§1) HEK cells were transfected with cDNA (400μg/ml DNA) encoding Sm.TRPMPZQ using a Maxcyte STX electroporation system and incubated overnight at 37°C. This system is uniquely capabable of large scale transfections providing one batch of cells ready for large scale HTS [30]. Briefly, the HEK cells were resuspended at 10^8/ml in Maxcyte electroporation buffer. Plasmid DNA was added to the cells in buffer to achieve a concentration of 400 μg/ml from a stock of 5mg/ml (in TE buffer). This mixture was loaded into the appropriate cassette, inserted into the machine, and cells electroporated. Cells were then frozen to provide a single supply of transfected cells for all subsequent assays. On the day of the assays, cells were thawed in a 37°C waterbath, and resuspended in DMEM + 10% FBS and counted. The cells were pelleted by centrifugation at 170xg for 5 minutes. The media was aspirated, and the remaining pellet was resuspended in 1x HBSS with 20 mM HEPES and 1% DMSO to achieve 1.33x10^6cells/ml. This cell suspension was then dispensed at 3 μl/well to the 1536 well plates (Greiner Bio One part 789072) at a density of 4,000 cells/well. Measurements of fluorescence intensity (λex = 470 nm, λem = 535 nm) were made using a FLIPR (Molecular Devices FLIPR Tetra). A read of basal fluorescence values was made (5s) prior to addition of compounds or controls (30 nl). In both ‘agonist’ and ‘antagonist mode’, the total assay volume was 6μl (1% DMSO). […] Ligand performance was categorized using an algorithm based on the activity of the entire dataset to define a ‘hit-cutoff’ parameter for both agonist-mode and antagonist-mode screening. Any compound with greater percent activation than this cutoff was assigned as ‘active’ prior to titration and counter-screening. Titration assays were executed using the same reagents, protocols and detection systems, done as 10-point concentration-response curves, performed in triplicate. Counter-screening was performed using untransfected HEK293 cells for comparison with results testing the same compounds effect on cells expressing Sm.TRPMPZQ, with ATP used as the positive control. For each compound, activity was plotted against compound concentration and data were fitted with a sigmoidal function. In order to be considered a hit at this stage a compound must achieve a EC50<5 μM for agonists and IC50 <5 μM for antagonists. All compounds selected for titration were subjected to LC-MS analysis to confirm mass and sample purity. ChemAxon (https://www.chemaxon.com) academic licensing was provided for the use of Instant JChem (ver. 15.10.12.0) to perform compound mining of the libraries utilized in this effort.

Sequences of proteins named here, by UniProt entry; tags and fusion partners are left off. Residues count along the entry.
UniProt A0A5K4F0X5, 1-2268: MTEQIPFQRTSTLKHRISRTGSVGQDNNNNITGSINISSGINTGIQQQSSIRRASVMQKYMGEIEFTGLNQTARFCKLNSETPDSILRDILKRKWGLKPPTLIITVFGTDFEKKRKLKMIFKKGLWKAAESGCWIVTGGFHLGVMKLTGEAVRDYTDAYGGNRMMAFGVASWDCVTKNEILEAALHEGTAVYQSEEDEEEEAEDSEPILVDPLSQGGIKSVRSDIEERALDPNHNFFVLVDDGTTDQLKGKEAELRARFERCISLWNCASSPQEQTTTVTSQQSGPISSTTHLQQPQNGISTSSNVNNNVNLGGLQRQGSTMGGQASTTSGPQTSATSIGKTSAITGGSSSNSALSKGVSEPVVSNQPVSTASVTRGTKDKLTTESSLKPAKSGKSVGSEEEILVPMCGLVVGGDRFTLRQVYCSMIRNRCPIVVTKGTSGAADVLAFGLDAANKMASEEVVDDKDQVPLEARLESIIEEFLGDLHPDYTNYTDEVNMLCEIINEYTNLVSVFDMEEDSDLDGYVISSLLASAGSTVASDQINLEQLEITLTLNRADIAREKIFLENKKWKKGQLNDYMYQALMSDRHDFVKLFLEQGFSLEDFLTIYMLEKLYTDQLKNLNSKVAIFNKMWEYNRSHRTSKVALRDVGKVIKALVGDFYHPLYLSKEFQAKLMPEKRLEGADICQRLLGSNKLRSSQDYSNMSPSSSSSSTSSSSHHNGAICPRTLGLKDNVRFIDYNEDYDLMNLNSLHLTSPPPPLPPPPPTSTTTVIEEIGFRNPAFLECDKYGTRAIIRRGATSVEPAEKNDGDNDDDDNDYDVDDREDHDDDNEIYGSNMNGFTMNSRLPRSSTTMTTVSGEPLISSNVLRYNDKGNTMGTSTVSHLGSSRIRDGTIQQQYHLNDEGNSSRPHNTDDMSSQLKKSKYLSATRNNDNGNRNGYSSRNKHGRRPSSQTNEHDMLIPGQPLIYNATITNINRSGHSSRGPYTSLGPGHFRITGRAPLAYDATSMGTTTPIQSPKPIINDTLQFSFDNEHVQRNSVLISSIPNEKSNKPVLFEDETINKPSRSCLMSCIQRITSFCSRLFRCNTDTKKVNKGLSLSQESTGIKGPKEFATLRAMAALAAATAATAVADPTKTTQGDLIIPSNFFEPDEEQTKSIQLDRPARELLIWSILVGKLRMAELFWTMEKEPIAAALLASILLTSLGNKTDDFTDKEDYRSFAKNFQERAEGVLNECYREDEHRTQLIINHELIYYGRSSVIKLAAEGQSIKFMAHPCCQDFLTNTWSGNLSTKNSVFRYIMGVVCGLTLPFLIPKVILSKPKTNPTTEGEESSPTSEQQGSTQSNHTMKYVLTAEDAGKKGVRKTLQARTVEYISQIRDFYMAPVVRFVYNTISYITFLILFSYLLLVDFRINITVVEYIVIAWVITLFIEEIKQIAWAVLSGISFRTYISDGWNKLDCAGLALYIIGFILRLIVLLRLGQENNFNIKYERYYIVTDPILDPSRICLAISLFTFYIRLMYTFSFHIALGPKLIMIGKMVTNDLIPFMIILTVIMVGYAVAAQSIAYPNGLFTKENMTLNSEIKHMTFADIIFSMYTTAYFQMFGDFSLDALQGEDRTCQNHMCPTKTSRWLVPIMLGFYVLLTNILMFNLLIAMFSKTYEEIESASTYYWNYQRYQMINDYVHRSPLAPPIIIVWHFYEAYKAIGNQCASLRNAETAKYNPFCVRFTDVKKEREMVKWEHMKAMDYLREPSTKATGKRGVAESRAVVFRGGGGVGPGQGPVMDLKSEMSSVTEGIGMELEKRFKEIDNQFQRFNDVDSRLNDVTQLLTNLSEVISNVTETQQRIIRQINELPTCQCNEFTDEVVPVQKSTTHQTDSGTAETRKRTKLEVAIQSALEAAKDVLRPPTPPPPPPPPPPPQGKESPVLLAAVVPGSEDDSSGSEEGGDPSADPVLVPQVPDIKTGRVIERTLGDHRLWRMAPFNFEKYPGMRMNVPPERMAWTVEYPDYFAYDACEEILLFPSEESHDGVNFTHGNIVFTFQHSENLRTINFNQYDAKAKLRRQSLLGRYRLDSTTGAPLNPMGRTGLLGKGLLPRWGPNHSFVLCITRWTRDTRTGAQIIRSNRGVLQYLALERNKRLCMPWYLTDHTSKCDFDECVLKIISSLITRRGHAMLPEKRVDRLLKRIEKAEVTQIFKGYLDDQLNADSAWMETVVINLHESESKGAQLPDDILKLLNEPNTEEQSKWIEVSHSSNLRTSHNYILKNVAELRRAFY

Sm.TRPMPZQ [3] = target: T1, Sm.TRPMPZQ; details: S3 Table, titration; remark: listed apart in the source
[4] = test system: untransfected HEK293 cells; test: Counterscreen, antagonist mode, Ca2+ signal in untransfected HEK cells; assay type: cell-based; details: S3 Table, counterscreen titration
Method: as §1, with “Counter-screening was performed using untransfected HEK293 cells for comparison with results testing the same compounds effect on cells expressing Sm.TRPMPZQ, with ATP used as the positive control. For each compound, activity was plotted against compound concentration and data were fitted with a sigmoidal function. In order to be considered a hit at this stage a compound must achieve a EC50<5 μM for agonists and IC50 <5 μM for antagonists. All compounds selected for titration were subjected to LC-MS analysis to confirm mass and sample purity. ChemAxon (https://www.chemaxon.com) academic licensing was provided for the use of Instant JChem (ver. 15.10.12.0) to perform compound mining of the libraries utilized in this effort.” left out

SMILES | Sm.TRPMPZQ AG Averaged Max % Response (Sm.TRPMPZQ [1]) [%] | HEK AG Averaged Max % Response [2] [%] | pEC50 [2] | Sm.TRPMPZQ ANT Averaged Max % Response (Sm.TRPMPZQ [3]) [%] | HEK ANT Averaged Max % Response [4] [%]
Cc1ccc(S(=O)(=O)Nc2ccc(-n3ccc(C(F)(F)F)n3)cc2)cc1 | 22.2528 | 46.6577 | < 4.91 | 65.0776 | 74.9133
O=c1[nH]c2ccccc2c(=O)n1C(c1ccc(Cl)cc1)P(=O)(Oc1ccccc1)Oc1ccccc1 (stereo not drawn) | 9.607 | 22.9012 | < 4.91 | 93.9968 | 29.6793
FC(F)(F)c1cc(N/N=C2/CCSc3sccc32)cc(C(F)(F)F)c1 | 1.692 | 12.2169 | < 4.91 | 79.9613 | 27.5203
